Reference: paper PMC5882710 (Royal Society Open Science, 2018)
Some peptides are written in HELM: one residue between dots, names in brackets for other building blocks, links after the first $.

Assay: general procedure: Fmoc solid-phase peptide synthesis; 2-chlorotrityl chloride resin
Details: whole synthesis

Row | Substance | isolated yield
1 | PEPTIDE1{[Fmoc].F.F.D.K.Y}$$$$V2.0 | 99.7%
2 | PEPTIDE1{[Nap].F.F.D.K.Y}$$$$V2.0 | 99.8%
3 | PEPTIDE1{[Npx].F.F.D.K.Y}$$$$V2.0 | 99.3%
